# Test: Drug interaction studies with oral rilpivirine
# Conditions: rilpivirine 150 mg once daily; No Effect = 1.00
substance,measurement,value
Darunavir/ritonavir,Geometric Mean Ratio of coadministered drug AUC with/without EDURANT,0.89
same,Geometric Mean Ratio of coadministered drug Cmax with/without EDURANT,0.90
same,Geometric Mean Ratio of coadministered drug Cmin with/without EDURANT,0.89
same,Geometric Mean Ratio of rilpivirine AUC with/without coadministered drug,2.30
same,Geometric Mean Ratio of rilpivirine Cmax with/without coadministered drug,1.79
same,Geometric Mean Ratio of rilpivirine Cmin with/without coadministered drug,2.78
